Measured values reported in patent publication US12440525B2 (priority 2017, dated 2025).

Test system: antiviral and redox response genes
Experiment: Microarray gene expression analysis of VSVΔ51-infected 786-0 cells
Type: cell-based, human
Conditions: DMF 200 μM, 24 h post infection, ifitim1, mx2, gbp4, ifi27, ifna, cxcl10, FIG. 5A, D

For COC(=O)/C=C/C(=O)OC [DMF, dimethyl fumarate], the “expression of antiviral genes up-regulated by VSVΔ51 infection” value was “inhibition of many of these”.

Counter-ions that a name gives are not always drawn.
